Experimental data reported in patent publication US20180003631A1.

Molecular target: T1, rNav1.2a/Kv2.1 VSD II paddle chimera (rat), P15387
T1 chain: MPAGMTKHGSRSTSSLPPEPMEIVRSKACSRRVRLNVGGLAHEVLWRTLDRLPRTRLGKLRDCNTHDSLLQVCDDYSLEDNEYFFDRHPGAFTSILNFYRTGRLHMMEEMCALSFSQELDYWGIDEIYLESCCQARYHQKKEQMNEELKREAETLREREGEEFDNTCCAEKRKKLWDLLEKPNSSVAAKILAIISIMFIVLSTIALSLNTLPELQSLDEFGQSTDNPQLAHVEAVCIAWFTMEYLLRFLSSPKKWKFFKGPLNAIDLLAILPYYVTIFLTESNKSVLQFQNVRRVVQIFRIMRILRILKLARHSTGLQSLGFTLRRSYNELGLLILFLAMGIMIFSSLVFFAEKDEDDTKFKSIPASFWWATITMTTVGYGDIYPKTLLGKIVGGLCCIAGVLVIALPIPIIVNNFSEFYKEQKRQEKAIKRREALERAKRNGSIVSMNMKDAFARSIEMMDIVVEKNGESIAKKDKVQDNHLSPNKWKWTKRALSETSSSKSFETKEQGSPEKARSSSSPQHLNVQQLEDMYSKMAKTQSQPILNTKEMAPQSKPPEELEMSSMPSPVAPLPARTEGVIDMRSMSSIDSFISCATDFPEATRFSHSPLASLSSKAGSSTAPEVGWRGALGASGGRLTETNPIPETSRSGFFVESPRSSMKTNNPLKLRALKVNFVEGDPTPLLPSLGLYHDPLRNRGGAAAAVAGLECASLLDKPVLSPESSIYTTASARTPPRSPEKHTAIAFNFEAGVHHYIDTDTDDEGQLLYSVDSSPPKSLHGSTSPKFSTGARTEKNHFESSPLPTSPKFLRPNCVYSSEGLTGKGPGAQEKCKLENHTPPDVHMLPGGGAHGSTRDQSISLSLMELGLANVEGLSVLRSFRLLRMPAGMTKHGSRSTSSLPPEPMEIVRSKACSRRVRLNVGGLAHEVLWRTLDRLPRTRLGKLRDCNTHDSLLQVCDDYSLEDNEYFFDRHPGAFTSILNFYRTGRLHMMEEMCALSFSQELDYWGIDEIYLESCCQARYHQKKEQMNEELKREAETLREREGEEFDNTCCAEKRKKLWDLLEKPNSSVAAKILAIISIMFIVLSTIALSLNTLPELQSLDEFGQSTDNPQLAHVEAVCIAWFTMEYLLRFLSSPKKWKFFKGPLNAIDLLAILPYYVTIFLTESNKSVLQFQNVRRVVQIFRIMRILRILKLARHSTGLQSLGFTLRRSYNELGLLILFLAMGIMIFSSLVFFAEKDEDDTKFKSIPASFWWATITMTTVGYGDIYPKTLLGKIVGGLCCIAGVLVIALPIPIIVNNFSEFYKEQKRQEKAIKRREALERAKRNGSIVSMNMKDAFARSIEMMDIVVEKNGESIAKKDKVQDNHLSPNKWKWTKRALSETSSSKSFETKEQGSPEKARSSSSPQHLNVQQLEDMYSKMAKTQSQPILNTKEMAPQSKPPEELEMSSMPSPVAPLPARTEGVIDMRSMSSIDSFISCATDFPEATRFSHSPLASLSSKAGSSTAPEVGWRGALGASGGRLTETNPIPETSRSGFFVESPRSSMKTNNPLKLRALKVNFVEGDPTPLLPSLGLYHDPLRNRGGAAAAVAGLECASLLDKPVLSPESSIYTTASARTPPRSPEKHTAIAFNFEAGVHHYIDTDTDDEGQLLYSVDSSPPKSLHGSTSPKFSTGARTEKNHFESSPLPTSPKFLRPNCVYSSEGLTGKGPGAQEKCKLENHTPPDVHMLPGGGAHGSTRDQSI
Assay: cell-based or functional assay

B1: CssIV from Centruroides suffusus suffusus, P60266 20-85 (peptide)
chain: KEGYLVNSYTGCKFECFKLGDNDYCLRECRQQYGKGSGGYCYAFGCWCTHLYEQAVVWPLPNKTCN
modifications: not checked
depolarizing shift in V1/2 at 1 µM toxin: 14 mV
